A mixed list of measured activities; the numbers were collected in NIAID ChemDB.

All rows: cytotoxicity tests; cell line: HeLa; endpoint: CC50

a–b is a range or a potency band.

SMILES,read by,result
Cc1ccc(C(=O)CCCCOc2ccc(C3=NCCO3)cc2)cc1Cl,-,>269 µM
CS(=O)c1ccc(Cc2ccc(S(C)(=O)=O)cn2)cc1,-,>10 µg/mL
NNC(=O)Cc1nc2n(n1)CCCCC2,-,>400 µg/mL
O=C(OCC1CCCCC1)c1nc(-c2ccccn2)[nH]c(=O)c1O,luminescence,>50 µM
O=C1/C(=C/c2ccc(Cl)cc2)COc2cc(Cl)cc(Cl)c21,-,0.39 µM
CS(=O)(=O)c1ccc(NCCc2ccc(Cl)cc2)nc1,-,>10 µg/mL
O=C(CCCCOc1ccc(C2=NCCO2)cc1)c1ccc(Cl)cc1,-,>280 µM
O=C(OCCC1CCCCC1)c1nc(-c2ccccn2)[nH]c(=O)c1O,luminescence,>50 µM
CCOc1ccc(-c2onc(N(CC)CC)c2Cc2c(N(CC)CC)noc2-c2ccc(O)cc2O)c(O)c1,-,17 µM
CS(=O)(=O)c1ccc(Cc2ccccc2)nc1,-,>10 µg/mL
O=c1cc(-c2ccc3ccccc3c2)c2cccnc2n1O,-,<100 µM
CS(=O)(=O)c1ccc(Cc2ccc(Cl)cc2)nc1,-,>10 µg/mL
CC(Nc1cc(=O)n(O)c2ncccc12)c1ccccc1,-,<100 µM
C=CCc1ncn2c(=O)[nH]c(NC(C)=O)nc12,-,>400 µg/mL
CCCCCCCCCc1ccc(OCCOCCOCCOCCOCCOCCOCCOCCOCCO)cc1,MTT,113 µM
C=CCSc1n[nH]c(-c2ccc([N+](=O)[O-])c(C)c2)n1,-,26.91 µg/mL
CCOc1cc(O)c(C(=O)NCc2ccc(NC)cc2)c(OC)c1,-,43 µg/mL
CC(C)C[C@H](NC(=O)OCc1ccccc1)C(=O)N[C@@H](Cc1ccccc1)C(=O)N[C@H](/C=C/C(=O)NC1CCCC1)CCC(N)=O,XTT,>100 µM
CC1(C)[C@@H](CO)CC[C@@]1(C)Cn1cnc2c(N)ncnc21,-,>400 µg/mL
O=C1c2ccccc2OCC1Cc1ccccc1,-,6.25 µM
CCn1nc(-c2ccc(Cn3ccc4ccccc43)cc2)nc1C,-,400 µg/mL
CCOC(=O)CCCN1C(=O)c2ccccc2C(C(=O)c2ccccc2)C1=O,-,>265 µM
Nc1ncnc2c1ncn2[C@@H]1C=C(CO)[C@@H](O)[C@@H]1O,-,>0.7 µg/mL
CC1(C)[C@@H](CO)CC[C@@]1(C)Cn1cc(I)c(=O)[nH]c1=O,-,>400 µg/mL
COc1ccccc1NC(=O)c1c(O)c2cccnc2n(O)c1=O,-,<100 µM
CCOc1cc(O)c(C(=O)NCc2ccc(OC)cc2)c(OC)c1,-,30 µg/mL
O=c1c(Cc2ccc(Cl)cc2)coc2cc(Cl)cc(Cl)c12,-,25 µM
CC(=O)OC[C@H]1OC(OC(=O)NS(=O)(=O)OC[C@H]2O[C@@H](n3ccc(=O)[nH]c3=O)[C@@H]3OC(C)(C)O[C@@H]32)[C@H](OC(C)=O)[C@@H](OC(C)=O)[C@@H]1OC(C)=O,-,360 µM
CCn1c2c(c(=O)c3cc(C(C)C)ccc31)Cc1ccccc1-2,MTT,>4 µg/mL
O=C(OCC1CCCCC1)c1nc(-c2ncccc2Cl)[nH]c(=O)c1O,luminescence,>50 µM
CC1(C)O[C@@H]2[C@H](O1)[C@@H](COS(=O)(=O)NC(=O)OC1O[C@H](CO)[C@@H](O)[C@H](O)[C@H]1O)O[C@H]2n1ccc(=O)[nH]c1=O,-,>220 µM
Cc1ccc(C(=O)CCCCOc2ccc(C3=NCCO3)cc2)cc1C,-,>285 µM
CCCCN1C(=O)c2ccccc2C(C(C)=O)C1=O,-,125 µM
CC(C)[C@@H]1CC[C@@]2(C)C1C1=CCC3[C@@]4(C)CC[C@@H](O)C(C)(C)C4CC[C@@]3(C)[C@]1(C)C[C@@H]2O,-,>10 µM
CCOC(=O)c1ccc(OCCCCC(=O)c2ccc(C)cc2)cc1,-,>293 µM
C#CCSc1n[nH]c(-c2ccco2)n1,-,56 µg/mL
CCN(CC)c1cc(-c2ccc(O)cc2O)on1,-,121 µM
N#CC(N)=NCCN=C(N)NC(N)=[NH+]CCCCCCCC[NH+]=C(N)NC(N)=NCCN.[Cl-].[Cl-],MTT,2830 µM
CCOc1ccc(-c2cc(N3CCCCC3)no2)c(O)c1,-,>347 µM
CCOC(=O)c1ccnc2c1c(O)cc(=O)n2O,-,<100 µM
Cc1nc(Cc2ccccc2)c2[nH]c(=S)[nH]c(=O)n12,-,200 µg/mL
CS(=O)(=O)c1ccc(NCc2ccc(Cl)cc2)nc1,-,>10 µg/mL
Nc1ncnc2c1ncn2C[C@H](O)CO,-,>0.7 µg/mL
C#CCSc1n[nH]c(-c2ccc([N+](=O)[O-])c(C)c2)n1,-,20.22 µg/mL
COc1ccc(CNC(=O)c2c(O)cc(OCC=C(C)C)cc2OC)cc1,-,29 µg/mL
CC(=O)O[C@H]1CC[C@@]2(C)C(CC[C@]3(C)C2CC=C2C4[C@H](C(C)C)CC[C@]4(C)[C@@H](OC(C)=O)C[C@]23C)C1(C)C,-,>10 µM
N#CC(N)=NCCCCCC[NH+]=C(N)NC(N)=NCCCCCCN=C(N)NC(N)=[NH+]CCCCCCN.[Cl-].[Cl-],MTT,110 µM
CS(=O)(=O)c1cccc(-c2cc(=O)n(O)c3ncccc23)c1,-,<100 µM
Cc1cn([C@H]2C[C@H](O[Si](C)(C)C(C)(C)C)[C@@H](/C=C\C#N)O2)c(=O)[nH]c1=O,-,50–100 µM
COc1ccc(/C=C2\COc3cc(OC)cc(OC)c3C2=O)cc1,-,1.56 µM
COc1ccc(C(=O)CCCCOc2ccc(C3=NCCO3)cc2)cc1,-,>283 µM
OC[C@H]1CC(n2cnc3c(NC4CC4)ncnc32)C[C@@H]1CO,-,>200 µg/mL
CCn1nc(Cc2n[nH]c(=S)o2)nc1C,-,>400 µg/mL
Nc1ncnc2c1ncn2[C@@H]1C=C(CO)[C@@H](O)C1,-,>5 µg/mL
CCOC(=O)CCCN1C(=O)Cc2ccccc2C1=O,-,>360 µM
O=C(OCCCC1CCCCC1)c1nc(-c2ccccn2)[nH]c(=O)c1O,luminescence,>50 µM
CN(C)c1cc(-c2ccc(O)cc2O)on1,-,227 µM
O=c1[nH]c(=O)n(C2C[C@H](CO)[C@@H](CO)C2)cc1I,-,>200 µg/mL
COc1ccc(-c2cc(=O)c3c(O)c(OC)c(OC)cc3o2)cc1OC,-,147 µg/mL
C=CCc1nc(C)n2c(=O)[nH]c(NC(C)=O)nc12,-,>400 µg/mL
C[C@H](CCC=C(CO)CO)[C@H]1CC[C@@]2(C)C3CC=C4[C@@H](CC[C@H](O)C4(C)C)[C@]3(C)C(=O)C[C@]12C,MTT,>50 µM
CCSc1n[nH]c(-c2ccc(Cl)cc2C)n1,-,12.57 µg/mL
O=C1Oc2cc(O)c(O)cc2C2C(c3ccc(O)c(O)c3)=C3c4cc(O)c(O)cc4C=CN3C12,MTT,5.7 µM
CCOC(=O)c1c(-c2cccc(-c3ccc(CN)cc3)c2)c2cc(-c3ccccc3OC)cnc2n(O)c1=O,-,<100 µM
COc1ccc(C2=C3c4cc(OC)c(OC)cc4C=CN3C3C(=O)Oc4cc(O)c(OC)cc4C23)cc1O,MTT,5.1 µM
COc1ccc(C(=O)CCCCOc2c(Cl)cc(C3=NCCO3)cc2Cl)cc1,-,>237 µM
C=CCSc1n[nH]c(-c2cccc([N+](=O)[O-])c2C)n1,-,26.42 µg/mL
CC(=O)Nc1nc2c(CC(O)CO)nc(C)n2c(=O)[nH]1,-,>400 µg/mL
COc1ccc(OCc2ccc(COc3c(Cl)cccc3Cl)cc2)c(Cl)c1,-,>50 µg/mL
N#CC(N)=NCCCCN=C(N)NC(N)=[NH+]CCCCCC[NH+]=C(N)NC(N)=NCCN.[Cl-].[Cl-],MTT,1414 µM
CCSC1NN=C(Cc2nc(C)n(C)n2)N1c1ccccc1,-,400 µg/mL
CC1(C)[C@@H](CO)CC[C@@]1(C)Cn1ccc(=O)[nH]c1=O,-,>400 µg/mL
Nc1nccc2c1ncn2[C@@H]1C[C@H](CO)[C@@H](O)[C@H]1O,-,>250 µg/mL
C/C(=C\CCC1(C)C=Cc2cc(O)cc(C)c2O1)CC/C=C(\C)CC[C@@H](C)C(C)(C)O,-,24 µM
O=c1ccn([C@@H]2C[C@H](CO)C[C@H]2CO)c(=O)[nH]1,-,>200 µg/mL
CCc1nc(CC(=O)NN=C(C)C)nn1CC,-,>400 µg/mL
CCS(=O)(=O)c1ccc(Cc2ccc(Cl)c(Cl)c2)nc1C(N)=O,-,10 µg/mL
C=CCSc1n[nH]c(-c2ccco2)n1,-,59.3 µg/mL
Cc1cc(C=O)cc(C)c1Oc1cc(Nc2ccc(C#N)cc2)nc2ccccc12,MTT,3.9 µM
CCOC(=O)c1ccc(OCCCCC(=O)c2ccccc2)cc1,-,>306 µM
CC(=O)O[C@@H]1C[C@@]2(C)C3CC=C4[C@@H](C[C@H](O)[C@@H](O)C4(C)C)[C@]3(C)C(=O)C[C@]2(C)C1C(C)(O)C(=O)/C=C/C(C)(C)OC(C)=O,MTT,1.2 µM

Again, the opening 5 rows:

| SMILES | read by | result |
|---|---|---|
| Cc1ccc(C(=O)CCCCOc2ccc(C3=NCCO3)cc2)cc1Cl | - | >269 µM |
| CS(=O)c1ccc(Cc2ccc(S(C)(=O)=O)cn2)cc1 | - | >10 µg/mL |
| NNC(=O)Cc1nc2n(n1)CCCCC2 | - | >400 µg/mL |
| O=C(OCC1CCCCC1)c1nc(-c2ccccn2)[nH]c(=O)c1O | luminescence | >50 µM |
| O=C1/C(=C/c2ccc(Cl)cc2)COc2cc(Cl)cc(Cl)c21 | - | 0.39 µM |

CCn: concentration that lowers growth or viability of the cells by n%. Blank or dashed fields: not listed here. Rows are shuffled and stem from different studies.